Results deposited as PubChem BioAssay AID1259414 (Drosophila RNAi Screening Center, 2018).
Aim: 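Fly genes that alter Wolbachia amount inside host cells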 (primary screen). Cell system: Drosophila JW18 cells infected with Wolbachia. Reagent: long dsRNA against Drosophila genes, 0.25 µg dsRNA per well of a 384-well plate. Timing: 5 days. Treatment: cells persistently infected with Wolbachia before knock-down; no added drug. Detection: 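Imaged fluorescence in situ signal for Wolbachia 23S rRNA per DAPI-counted host cell, given as a robust z-score within each plate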. Reading the numbers: Wolbachia per cell robust z: higher = more Wolbachia per host cell than the plate typical. Rule for the call: 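Hit when robust z is 1.5 or more, or -1.5 or less, in at least two of three replicates; excludes dsRNAs with several or no targets, genes not expressed in JW18 and well A1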.
In all, the deposit lists about 24,000 reagents; below is an unselected part of those with a known target gene and a result. Over the whole deposit, about 1,210 (5%) are marked active. 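Inactive calls also include excluded dsRNAs with several or no targets, genes unexpressed in JW18, and well A1, regardless of score.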 A number with no mark means an inactive call. Reagents against one gene are numbered here. A plus sign joins genes that one reagent is predicted to hit. No sequences are given here.

target	dsRNA no.	Wolbachia per cell robust z, rep 1	Wolbachia per cell robust z, rep 2	Wolbachia per cell robust z, rep 3
CG15253 (GeneID 34916)	1	-0.548	-0.114	-0.407
CG15253 (GeneID 34916)	2	0.615	0.246	-0.167
CG13716 (GeneID 38567)	1	0.544	-0.458	0.397
CG13716 (GeneID 38567)	2	1.41	-6.02	0.235
CG14864 (GeneID 41846)	1	-0.208	1.38	0.495
CG10011 (GeneID 43387)	1	-0.911	1.15	-0.751
PGRP-LF + UGP	1	-0.764	0.836	-0.416
mRpS25 (GeneID 32395)	1	-0.0581	0.55	-0.105
E(spl)mbeta-HLH (GeneID 43152)	1	-8.72	-0.581	1.49
E(spl)mbeta-HLH (GeneID 43152)	2	-3.43	-0.601	-0.0611
Ace (GeneID 41625)	1	0.442	0.267	-0.0055
Ace (GeneID 41625)	2	-2.66	-0.759	-1.34
CG12715 (GeneID 32252)	1	-0.0641	-0.485	0.546
prage (GeneID 31136)	1	1.41	-1.86	0.987
prage (GeneID 31136)	2	-0.336	-0.435	-0.00232
prage (GeneID 31136)	3	-0.642	-0.778	-0.0419
peb (GeneID 31391)	1	-3.65 (active)	-2	-4.34
peb (GeneID 31391)	2	-0.276	2.58	-1.06
CG13088 (GeneID 34180)	1	-3.13	0.306	0.58
CG11368 (GeneID 50397)	1	-1.8	-2.91	0.407
CG31245 (GeneID 42316)	1	-0.159	-0.0941	-0.0685
ODA-Dnal1 (GeneID 35962)	1	-0.473	-0.819	0.958
ODA-Dnal1 (GeneID 35962)	2	1.37	0.381	-1.07
SF2 (GeneID 53443)	1	0.537	1.09	1.6
CG13040 (GeneID 39804)	1	-0.477	-0.0572	-1.21
CG13040 (GeneID 39804)	2	-0.00298	-0.649	-0.64
CG42661 + Tsp66A + CG42660	1	-2.52	-1.25	-7.23
Cnb (GeneID 38258)	1	0.498	0.567	-0.788
RpL35 (GeneID 31483)	1	2.51 (active)	2.98	2.67
CG32032 (GeneID 192535)	1	1.06	0.958	1.09
Tsp39D (GeneID 35405)	1	0.915	-4.31	-0.327
CG34183 (GeneID 5740752)	1	-1.47	-0.924	-1.33
HP6 (GeneID 33661)	1	0.612	0.631	0.21
CG1409 (GeneID 31689)	1	0.712	-5.67	0.395
CG13045 (GeneID 39792)	1	-2.29	-4.73	-8.78
CG13045 (GeneID 39792)	2	-2.15	-0.21	-1.41
CG8541 (GeneID 38838)	1	0.295	0.773	0.498
CG8541 (GeneID 38838)	2	-0.222	-0.191	-0.575
lace (GeneID 34910)	1	1.39	0.877	2.28
CG32344 (GeneID 326208)	1	-0.389	-0.134	0.465
CG5846 (GeneID 34326)	1	0.36	0.178	-0.638
CG30059 + CG18278	1	0.195	-8.64	0.877
BthD (GeneID 32317)	1	0.109	-2.54	0.139
BthD (GeneID 32317)	2	-1.13	-0.325	0.19
Obp85a (GeneID 41006)	1	0.0537	-1.26	-0.301
Jon25Biii (GeneID 33706)	1	0.415	-0.326	-1.49
Jon25Biii (GeneID 33706)	2	-1.4	-4.65	-0.89

Sorted by “Wolbachia per cell robust z, rep 2” (ascending): 2 of the entries above.
target	dsRNA no.	Wolbachia per cell robust z, rep 1	Wolbachia per cell robust z, rep 2	Wolbachia per cell robust z, rep 3
CG13045 (GeneID 39792)	1	-2.29	-4.73	-8.78
CG13045 (GeneID 39792)	2	-2.15	-0.21	-1.41
